The target of experiment [1] is HIV-1 clade C strain 426c Env on Env-pseudotyped virus produced in 293T cells (HIV-1). Kind of experiment: cell-based or functional assay.
Experiment [2] deals with HIV-1 clade C strain 426c Env on Env-pseudotyped virus produced in 293s/GnTI-/- cells (Man5-enrichment) (HIV-1). Kind of experiment: cell-based or functional assay.

With “sCD4 (from UniProt P01730 26-396) (receptor)”, the ID50/IC50 in TZM-bl in experiment [1] and in experiment [2] was above 25 mg/L each time.

Values taken from patent US20230140293A1.
